Results taken from ChEMBL document CHEMBL2021912, “Synthesis, cytotoxicity and apoptosis of cyclotriphosphazene compounds as anti-cancer agents” (Eur J Med Chem, 2012).

Legend:
[1] = test system: Staphylococcus aureus; assay: Antibacterial activity against Staphylococcus aureus ATCC 25923 after 18 to 24 hrs by broth microdilution method
[2] = test system: Escherichia coli; assay: Antibacterial activity against Escherichia coli ATCC 35218 after 18 to 24 hrs by broth microdilution method
[3] = test system: Pseudomonas aeruginosa; assay: Antibacterial activity against Pseudomonas aeruginosa ATCC 27853 after 18 to 24 hrs by broth microdilution method
[4] = test system: Candida albicans; assay: Antifungal activity against Candida albicans ATCC 10231 after 48 hrs by broth microdilution method

Measured: ID50

ClP1(Cl)=NP(Cl)(Cl)=NP(Cl)(Cl)=N1
> 250 µg/mL: all assays above
